Source: PMC3084762, “Distinct Properties of Hexameric but Functionally Conserved Mycobacterium tuberculosis Transcription-Repair Coupling Factor” (PLoS ONE, 2011)

Tested on: Nc1ncnc2c1ncn2[C@@H]1O[C@H](COP(=O)(O)OP(=O)(O)OP(=O)(O)O)[C@@H](O)[C@H]1O
Assay: purified protein
Details: pH 8.0; 37.0 °C

(Mycobacterium tuberculosis H37Rv) was tested, and the Km was 1100 ± 300 µM and 1300 ± 200 µM.

“And” between values parts separate entries of the source, which are not always exact repeats. Equal values may be shown once.
